Compound potency records, mixed from different reports. Data source: NIAID ChemDB in PubChem.

All rows: cytotoxicity tests; cells: MT-4; read-out: CC50

CCn is the concentration with n% toxicity to the cells. An empty or dashed field is not shown. Rows are shuffled and stem from different studies.

SMILES,method,value
COc1cc(O)ccc1/C=C/C(=O)c1ccc(O)cc1,,12 µg/mL
COCCNc1cc(Oc2c(C)cc(/C=C/C#N)cc2C)nc(Nc2ccc(C#N)cc2)n1,MTT,3.05 µM
Cc1cn([C@]2(c3ccccc3)C[C@@H]2CO)c(=O)[nH]c1=O,,>100 µM
OCc1cn(Cc2ccncc2)c(Sc2cc(Cl)cc(Cl)c2)c1C1CC1,MTT,80 µM
Fc1cccc(Cl)c1C1SCc2nc3ccc(C(F)(F)F)cc3n21,,15 µM
O=c1ccn([C@]2(c3ccccc3)C[C@@H]2CO)c(=O)[nH]1,,>100 µM
NOCc1c(F)cccc1Cl,,62.3 µg/mL
CC(C)CN(C[C@@H](O)[C@H](Cc1ccccc1)NC(=O)O[C@H]1CCOC1)S(=O)(=O)c1ccc(N)cc1,,89 µM
COc1ccc2c(O)c(C(c3cccc(NS(=O)(=O)c4ccc(C#N)cc4)c3)C3CC3)c(=O)oc2c1,,>30 µM
Cc1cc(=O)oc2c3c(ccc12)OC(C)(C)[C@H](OC(=O)C12CCC(C)(C(=O)O1)C2(C)C)[C@@H]3OC(=O)C12CCC(C)(C(=O)O1)C2(C)C,,>15.7 µM
N#Cc1ccccc1CN1CCC(N=C2C=C(Cc3cccc4ccccc34)NS(=O)(=O)N2)CC1,MTT,108 µM
Cc1cn([C@]2(c3ccccc3)C[C@@H]2COCP(=O)(OC(C)C)OC(C)C)c(=O)[nH]c1=O,,>100 µM
Fc1cccc(F)c1C1SCc2nc3ccc(C(F)(F)F)cc3n21,,>351 µM
Cc1cn([C@H]2C[C@H](N=[N+]=[N-])[C@@H](CO)O2)c(=O)[nH]c1=O,,8 µM
Cc1cn([C@@H]2O[C@H](CO[Si](C)(C)C(C)(C)C)C3(OS(=O)(=O)C=C3N)[C@H]2O[Si](C)(C)C(C)(C)C)c(=O)n(C)c1=O,,230 µM
COc1ccc2c(c1)nc1n2C(c2c(F)cccc2Cl)SC1,,1.8 µM
Nc1nc(Cl)nc2c1ncn2[C@@H]1C=C[C@H](CO)O1,,>10 µM
Cn1c(=O)cc(Oc2nc(Nc3ccc(C#N)cc3)nc(Sc3nc4ccccc4s3)n2)c2ccccc21,MTT,72.78 µg/mL
Fc1cccc(F)c1C1SCc2nc3cc(C(F)(F)F)ccc3n21,,>351 µM
Cc1ccccc1CN1CCC(N=C2C=C(Cc3cccc4ccccc34)NS(=O)(=O)N2)CC1,MTT,107 µM
CCc1c(Sc2cc(C)cc(C)c2)n(COCCO)c(=S)[nH]c1=O,,277 µM
Cc1cc(=O)c2ccc3c(c2o1)[C@@H](OC(=O)C12CCC(C)(C(=O)O1)C2(C)C)[C@@H](OC(=O)C(C)C)C(C)(C)O3,,17.1 µM
Cn1c(=O)cc(Oc2nc(Nc3ccc(C#N)cc3)nc(Nc3nc4ccc(Br)cc4s3)n2)c2ccccc21,MTT,14.5 µg/mL
Nc1nc2c(ncn2C/C=N/OCP(=O)(O)O)c(=O)[nH]1,absorbance,>1000 µM
Nc1nc(Cl)nc2c1ncn2[C@@H]1C[C@@H](O)[C@H](CO)O1,,>10 µM
Fc1ccc2nc3n(c2c1)C(c1c(F)cccc1F)SC3,,162 µM
Cc1cc(C#N)cc(C)c1Oc1ccnc(S(=O)(=O)CC(=O)Nc2cccc([N+](=O)[O-])c2)n1,MTT,>23.6 µM
Cc1cc(/C=C/C#N)cc(C)c1Nc1ccnc(Nc2ccc(C#N)cc2)n1,,10 µM
Cc1cn([C@H]2C[C@H](N=[N+]=[N-])[C@@H](CO)O2)c(=O)[nH]c1=O,trypan blue,3.5 µg/mL
O=S1(=O)NC(Cc2ccc(Cl)cc2Cl)=CC(=NC2CCN(Cc3ccc(F)cc3)CC2)N1,MTT,103 µM
C[C@@H]1O[C@@H](Oc2c(-c3ccc(O)cc3)oc3c4c(cc(O)c3c2=O)OC(C)(C)C=C4)[C@H](O)[C@H](O)[C@H]1O,,>500 µg/mL
Cc1oc2c3c(ccc2c(=O)c1C)OC(C)(C)[C@H](OC(=O)C12CCC(C)(C(=O)O1)C2(C)C)[C@@H]3OC(=O)C12CCC(C)(C(=O)O1)C2(C)C,,4.72 µM
Cc1cn([C@H]2C[C@H](N=[N+]=[N-])[C@@H](CO)O2)c(=O)[nH]c1=O,,>100 µM
N#Cc1ccc(S(=O)(=O)Nc2cccc(C(c3c(O)cc(C(CC4CC4)CC4CC4)oc3=O)C3CC3)c2)cc1,,>30 µM
COc1ccc(-c2coc3cc(O)cc(O)c3c2=O)cc1,,60 µg/mL
Cc1coc2c3c(ccc2c1=O)OC(C)(C)[C@H](OC(=O)C12CCC(C)(C(=O)O1)C2(C)C)[C@@H]3OC(=O)C12CCC(C)(C(=O)O1)C2(C)C,,3.14 µM
COc1ccc(CN2CCC(N=C3C=C(Cc4cccc5ccccc45)NS(=O)(=O)N3)CC2)cc1,MTT,199 µM
CCCc1cc(=O)c2ccc3c(c2o1)[C@@H](OC(=O)C12CCC(C)(C(=O)O1)C2(C)C)[C@@H](OC(=O)C12CCC(C)(C(=O)O1)C2(C)C)C(C)(C)O3,,37.65 µM
Cc1cccc2c1nc1n2C(c2c(F)cccc2Cl)SC1,,>392 µM
CNNC(=O)c1cn(Cc2ccncc2)c(Sc2ccccc2)c1C(C)C,MTT,>200 µM
Cc1cn([C@H]2C[C@H](N=[N+]=[N-])[C@@H](CO)O2)c(=O)[nH]c1=O,,>0.5 µg/mL
Cn1c(=O)cc(Oc2nc(Nc3ccc(C#N)cc3)nc(Nc3ccccn3)n2)c2ccccc21,MTT,≥74.1 µg/mL
COc1ccc2nc3n(c2c1)C(c1c(F)cccc1F)SC3,,>392 µM
C/C(CO)=C(/Br)Cn1cc(C)c(=O)[nH]c1=O,,>100 µg/mL
CC(C)OP(=O)(COC[C@H]1C[C@@]1(c1ccccc1)n1ccc(=O)[nH]c1=O)OC(C)C,,>100 µM
COc1cc(O)c2c(=O)c(Oc3ccccc3)coc2c1,,>100 µg/mL
CCc1cc(=O)c2ccc3c(c2o1)[C@@H](OC(=O)C12CCC(C)(C(=O)O1)C2(C)C)[C@@H](OC(=O)C(C)C)C(C)(C)O3,,>18.5 µM
Cc1cc(C#N)cc(C)c1Nc1ccnc(Nc2ccc(C#N)cc2)n1,,5.036 µM
CCOCc1cc(=O)c2ccc3c(c2o1)[C@@H](OC(=O)C12CCC(C)(C(=O)O1)C2(C)C)[C@@H](OC(=O)C(C)C)C(C)(C)O3,,>17.5 µM
CCOC(=O)c1cn(Cc2ccncc2)c(Sc2cc(Cl)cc(Cl)c2)c1C1CCC1,MTT,80 µM
CCC(Cc1ccccc1)c1cc(O)c(C(c2cccc(NS(=O)(=O)c3cn(C)cn3)c2)C2CC2)c(=O)o1,,>30 µM
C/C(Cn1cnc2c(N)ncnc21)=N\OCP(=O)(O)O,absorbance,>1000 µM
NOCc1c(Cl)cccc1Cl,,51.9 µg/mL
Fc1ccc2nc3n(c2c1)C(c1c(Cl)cccc1Cl)SC3,,>368 µM
CC(=O)O[C@@H]1[C@H](OC(=O)C23CCC(C)(C(=O)O2)C3(C)C)c2c(ccc3c(=O)cc(-c4ccccc4)oc23)OC1(C)C,,6.25 µM
C/C(CO)=C(/Br)Cn1cnc2c(N)ncnc21,,>100 µg/mL
CCC(Cc1ccccc1)c1cc(O)c(C(c2cccc(NS(=O)(=O)c3cccnc3)c2)C2CC2)c(=O)o1,,>30 µM
NOCc1ccc(Cl)cc1Cl,,48.1 µg/mL
O=S1(=O)NC(Cc2cccc3ccccc23)=CC(=NC2CCN(Cc3ccccc3)CC2)N1,MTT,117 µM
NC(=O)OCc1cn(Cc2ccncc2)c(Sc2cc(Cl)cc(Cl)c2)c1C1CCC1,MTT,114.5 µM
CC(=O)c1ccc(CN2CCC(N=C3C=C(Cc4ccc(Cl)cc4Cl)NS(=O)(=O)N3)CC2)cc1,MTT,99.45 µM
COCCOCCC(CCOCCOC)c1cc(O)c(C(c2cccc(NS(=O)(=O)c3cn(C)cn3)c2)C2CC2)c(=O)o1,,>30 µM

Again, the opening 9 rows:

SMILES | method | value
COc1cc(O)ccc1/C=C/C(=O)c1ccc(O)cc1 |  | 12 µg/mL
COCCNc1cc(Oc2c(C)cc(/C=C/C#N)cc2C)nc(Nc2ccc(C#N)cc2)n1 | MTT | 3.05 µM
Cc1cn([C@]2(c3ccccc3)C[C@@H]2CO)c(=O)[nH]c1=O |  | >100 µM
OCc1cn(Cc2ccncc2)c(Sc2cc(Cl)cc(Cl)c2)c1C1CC1 | MTT | 80 µM
Fc1cccc(Cl)c1C1SCc2nc3ccc(C(F)(F)F)cc3n21 |  | 15 µM
O=c1ccn([C@]2(c3ccccc3)C[C@@H]2CO)c(=O)[nH]1 |  | >100 µM
NOCc1c(F)cccc1Cl |  | 62.3 µg/mL
CC(C)CN(C[C@@H](O)[C@H](Cc1ccccc1)NC(=O)O[C@H]1CCOC1)S(=O)(=O)c1ccc(N)cc1 |  | 89 µM
COc1ccc2c(O)c(C(c3cccc(NS(=O)(=O)c4ccc(C#N)cc4)c3)C3CC3)c(=O)oc2c1 |  | >30 µM